Pooled drug test results. Numbers come from NIAID ChemDB, via PubChem.

All rows: whole-cell or culture tests; agent: Toxoplasma gondii

Neighbouring rows are from separate reports. A number after MIC or MFC names an inhibition level or a share of isolates. An empty or dashed field is not shown. ECn is the concentration giving n% inhibition of infection, replication or growth.

| SMILES | strain | cell line | read-out | value |
|---|---|---|---|---|
| COc1c(N2CCNC(C)C2)c(F)cc2c(=O)c(C(=O)O)cn(C3CC3)c12 | - | - | EC50 | 4.1 µg/mL |
| COc1ccc(OCc2ccccc2C(=O)NC(=S)Nc2ccc(I)cc2)cc1 | RH beta-gal | Human foreskin fibroblasts (HFF) | EC50 | 25 µM |
| Cc1cc2c(o1)C(=O)c1cc(=O)[nH]cc1C2=O | - | - | EC50 | 1.2 µg/mL |
| Cc1cccc(NC(=S)NC(=O)c2ccccc2COc2ccc(Cl)cc2)c1 | RH beta-gal | Human foreskin fibroblasts (HFF) | EC50 | 114 µM |
| COC(=O)c1ccc(C(=O)NC(=O)c2ccccc2O)cc1 | - | Human foreskin fibroblasts | MIC50 | >1 µM |
| COc1ccc(OCc2ccccc2C(=O)NC(=S)Nc2cccc(I)c2)cc1 | RH beta-gal | Human foreskin fibroblasts (HFF) | EC50 | 132 µM |
| Cn1cc2c(cc1=O)C(=O)c1ccccc1C2=O | - | - | EC50 | 1.94 µg/mL |
| Nc1ccc(S(=O)(=O)Nc2ncc(O)cn2)cc1 | - | - | EC50 | >500 µg/mL |
| COc1ccc(OCc2ccccc2C(=O)NC(=S)Nc2ccccc2OC)cc1 | RH beta-gal | Human foreskin fibroblasts (HFF) | EC50 | 117 µM |
| COc1cc(C(=O)NC(=O)c2ccccc2O)cc(OC)c1OC | - | Human foreskin fibroblasts | MIC90 | >1 µM |
| CCCC1=C(OCCCCCCO[Si](C)(C)C(C)(C)C)C(C)SC1=O | RH | - | EC50 | 31.9 µM |
| Cc1c(F)c(N2C[C@@H]3C(N)[C@@H]3C2)nc2c1c(=O)c(C(=O)O)cn2C1CC1 | - | - | EC50 | 0.6 µg/mL |
| O=C1C(=O)c2ccccc2C(O)=C1C1CCC(c2ccc(Cl)cc2)CC1 | RH atovaquone-resistant | - | EC50 | 0.75 µM |
| O=C(NC(=O)C1C[C@@H]1c1ccccc1)c1ccccc1O | - | Human foreskin fibroblasts | MIC50 | >0.25 µM |
| CN1CCC(c2cc(-c3ccncc3)c(-c3ccc(F)cc3)[nH]2)CC1 | ET-PKG FLAG T770Q | - | EC50 | 2.9 µM |
| O=C(NC(=O)c1ccccc1O)c1cccc(CCl)c1 | - | Human foreskin fibroblasts | MIC90 | >1 µM |
| O=C1C=C(Br)C(=O)c2ccccc21 | - | - | EC50 | 1.28 µg/mL |
| COc1ccc(OCc2ccccc2C(=O)NC(=S)Nc2ccc3ccccc3c2)cc1 | RH beta-gal | Human foreskin fibroblasts (HFF) | EC50 | 83 µM |
| C[C@@H]1CN(c2c(F)c(N)c3c(=O)c(C(=O)O)cn(C4CC4)c3c2F)C[C@H](C)N1 | - | - | EC50 | 40 µg/mL |
| CCc1nc(N)nc(N)c1-c1ccc(Cl)cc1 | RH | - | EC50 | <0.47 µg/mL |
| Cc1cc2c(o1)C(=O)C=C(Br)C2=O | - | - | EC50 | 0.87 µg/mL |
| CCCCCCCCCCC1SC(=O)C(CC)=C1O | RH | - | EC50 | 9.9 µM |
| Cc1cc2c(o1)C(=O)c1c[nH]c(=O)cc1C2=O | - | - | EC50 | 2.9 µg/mL |
| O=C(NC(=O)c1ccccc1O)c1ccc([N+](=O)[O-])cc1 | - | Human foreskin fibroblasts | MIC50 | >1 µM |
| CCCCCCCCCCCCCCCCC1(C)SC(=O)C(CCC)=C1O | RH | - | EC50 | 1.96 µM |
| COc1c(N2C[C@@H]3C(CN)[C@@H]3C2)c(F)cc2c(=O)c(C(=O)O)cn(C3CC3)c12 | - | - | EC50 | 30 µg/mL |
| CC(C)(C)c1ccc(NC(=O)NC(=O)c2ccccc2O)cc1 | - | Human foreskin fibroblasts | MIC50 | >0.25 µM |
| O=C1c2ccccc2C(=O)c2cc3ccccc3cc21 | - | - | EC50 | 0.42 µg/mL |
| Nc1ccc(C(=O)NC(=O)c2ccccc2O)cc1 | - | Human foreskin fibroblasts | MIC50 | >1 µM |
| COc1cccc2c1C(=O)C=C(N(C)C)C2=O | - | - | EC50 | 0.92 µg/mL |
| O=C(NC(=O)c1ccc(Cl)cc1Cl)c1ccccc1O | - | Human foreskin fibroblasts | MIC50 | >1 µM |
| COC(=O)C1C=CNc2c(O)c3c(c(O)c21)C(=O)C=CC3=O | - | - | EC50 | 2.18 µg/mL |

Again, the opening 4 rows:

SMILES | strain | cell line | read-out | value
COc1c(N2CCNC(C)C2)c(F)cc2c(=O)c(C(=O)O)cn(C3CC3)c12 | - | - | EC50 | 4.1 µg/mL
COc1ccc(OCc2ccccc2C(=O)NC(=S)Nc2ccc(I)cc2)cc1 | RH beta-gal | Human foreskin fibroblasts (HFF) | EC50 | 25 µM
Cc1cc2c(o1)C(=O)c1cc(=O)[nH]cc1C2=O | - | - | EC50 | 1.2 µg/mL
Cc1cccc(NC(=S)NC(=O)c2ccccc2COc2ccc(Cl)cc2)c1 | RH beta-gal | Human foreskin fibroblasts (HFF) | EC50 | 114 µM